Anti-infective test results gathered from many reports (values: NIAID ChemDB through PubChem).

Common to all: growth or infection tests; agent: Mycobacterium avium complex; measure: MIC90

Blank or dashed fields: not listed here.

compound	strain	value
COc1c(N2CCNC(C)C2)c(F)cc2c(=O)c(C(=O)O)cn(C3CC3)c12	-	8–16 µg/mL
COc1c(N2CCNC(C)C2)c(F)cc2c(=O)c(C(=O)O)cn(C3CC3)c12	16 isolates	6.25 µg/mL
CCn1cc(C(=O)O)c(=O)c2cc(F)c(N3CCNCC3)cc21	22 strains	16 µg/mL
CO[C@H]1/C=C/O[C@@]2(C)Oc3c(C)c(O)c4c(O)c(c5c(c4c3C2=O)NC2(CCN(CC(C)C)CC2)N=5)=NC(=O)/C(C)=C\C=C\[C@H](C)[C@H](O)[C@@H](C)[C@@H](O)[C@@H](C)[C@H](OC(C)=O)[C@@H]1C	32 isolates	2 µg/mL
CC[C@H]1OC(=O)[C@H](C)[C@@H](O[C@H]2C[C@@](C)(OC)[C@@H](O)[C@H](C)O2)[C@H](C)[C@@H](O[C@@H]2O[C@H](C)C[C@H](N(C)C)[C@H]2O)[C@](C)(OC)C[C@@H](C)C(=O)[C@H](C)[C@@H](O)[C@]1(C)O	22 strains	8 µg/mL
CC(C)(N)C1CCN(c2c(F)cc3c(=O)c(C(=O)O)cn(C4CC4)c3c2F)C1	14 strains	16 µg/mL
CCn1cc(C(=O)O)c(=O)c2cc(F)c(N3CCNCC3)cc21	-	32 µg/mL
CCCN1CCN(c2cc(=O)c3nc4c(oc3c2)c2c(=O)c3c(O)c(C)c5c(c34)=C(O)[C@@](C)(O/C=C/[C@H](OC)[C@@H](C)[C@@H](OC(C)=O)[C@H](C)[C@H](O)[C@H](C)[C@@H](O)[C@@H](C)/C=C/C=C(/C)C(=O)N2)O5)CC1	20 strains	0.3 µg/mL
CO[C@H]1/C=C/O[C@@]2(C)Oc3c(C)c(O)c4c(O)c(c5c(c4c3C2=O)NC2(CCN(CC(C)C)CC2)N=5)=NC(=O)/C(C)=C\C=C\[C@H](C)[C@H](O)[C@@H](C)[C@@H](O)[C@@H](C)[C@H](OC(C)=O)[C@@H]1C	40 isolates	1.6 µg/mL
COC1CCN(c2c(F)cc3c(=O)c(C(=O)O)cn(C4CC4)c3c2F)C1	-	4 µg/mL
CC1CN(c2nc3c(cc2F)c(=O)c(C(=O)O)cn3C(C)(C)C)CCN1	14 strains	2 µg/mL
CNn1cc(C(=O)O)c(=O)c2cc(F)c(N3CCN(C)CC3)cc21	19 strains	>25 µg/mL
CO[C@H]1/C=C/O[C@@]2(C)Oc3c(C)c(O)c4c(O)c(c(/C=N/N5CCN(C)CC5)c(O)c4c3C2=O)NC(=O)/C(C)=C\C=C\[C@H](C)[C@H](O)[C@@H](C)[C@@H](O)[C@@H](C)[C@H](OC(C)=O)[C@@H]1C	52 strains	50 µg/mL
CC[C@@H](CO)NCCN[C@@H](CC)CO	37 strains	8 µg/mL
CC1CN(c2c(F)cc3c(=O)c(C(=O)O)cn(C4CC4)c3c2F)CCN1	14 strains	2 µg/mL
N[C@@H]1CN(c2c(F)cc3c(=O)c(C(=O)O)cn([C@@H]4C[C@@H]4F)c3c2Cl)CC12CC2	-	8 µg/mL
O=C(O)c1cn(C2CC2)c2c(F)c(N3CCS(=O)CC3)c(F)cc2c1=O	-	4 µg/mL
CCN(CC)CCN=c1cc2n(-c3ccc(Cl)cc3)c3ccccc3nc-2cc1Nc1ccc(Cl)cc1	-	0.4 µg/mL
CC[C@H]1OC(=O)[C@H](C)[C@@H](O[C@H]2C[C@@](C)(OC)[C@@H](O)[C@H](C)O2)[C@H](C)[C@@H](O[C@@H]2O[C@H](C)C[C@H](N(C)C)[C@H]2O)[C@](C)(O)C[C@@H](C)CN(C)[C@H](C)[C@@H](O)[C@]1(C)O	15 strains	62 µg/mL
CO[C@H]1/C=C/O[C@@]2(C)Oc3c(C)c(O)c4c(O)c(c5c(c4c3C2=O)NC2(CCN(CC(C)C)CC2)N=5)=NC(=O)/C(C)=C\C=C\[C@H](C)[C@H](O)[C@@H](C)[C@@H](O)[C@@H](C)[C@H](OC(C)=O)[C@@H]1C	-	0.41 µg/mL
C[C@H]1COc2c(N3CCN(C)CC3)c(F)cc3c(=O)c(C(=O)O)cn1c23	20 strains	25 µg/mL
COC(C(N)=NC1C(=O)N2C(C(=O)[O-])=C(C[N+]3(C)C=CC=C3)CSC12)c1cnc(N)s1	-	31.1 µg/mL
O=C(O)c1cn(C2CC2)c2c(F)c(N3CCSCC3)c(F)cc2c1=O	14 strains	16 µg/mL
N[C@@H]1CN(c2c(F)cc3c(=O)c(C(=O)O)cn([C@@H]4C[C@@H]4F)c3c2Cl)CC12CC2	20 strains	6.25 µg/mL
O=C(O)c1cn(C2CC2)c2c(F)c(N3CCS(=O)CC3)c(F)cc2c1=O	14 strains	4 µg/mL
CCn1cc(C(=O)O)c(=O)c2cc(F)c(N3CCNCC3)cc21	-	25.7 µg/mL
CC1COc2c(N3CCN(C)CC3)c(F)cc3c(=O)c(C(=O)O)cn1c23	-	16–128 µg/mL
Nc1nc(-n2cc(C(=O)O)c(=O)c3cc(F)c(N4CC(O)C4)c(Cl)c32)c(F)cc1F	20 strains	25 µg/mL
C[C@H]1COc2c(N3CCN(C)CC3)c(F)cc3c(=O)c(C(=O)O)cn1c23	12 strains	8 µg/mL
CCn1cc(C(=O)O)c(=O)c2cc(F)c(N3CCNCC3)cc21	16 isolates	100 µg/mL
CO[C@H]1/C=C/O[C@@]2(C)Oc3c(C)c(O)c4c(O)c(c5c(c4c3C2=O)NC2(CCN(CC(C)C)CC2)N=5)=NC(=O)/C(C)=C\C=C\[C@H](C)[C@H](O)[C@@H](C)[C@@H](O)[C@@H](C)[C@H](OC(C)=O)[C@@H]1C	37 strains	0.5 µg/mL
CC1COc2c(N3CCN(C)CC3)c(F)cc3c(=O)c(C(=O)O)cn1c23	101 isolates	16 µg/mL
CO/N=C(/C(=O)N[C@@H]1C(=O)N2C(C(=O)O)=C(COC(N)=O)CS[C@H]12)c1ccco1	-	47.9 µg/mL
C[C@H]1COc2c(N3CCN(C)CC3)c(F)cc3c(=O)c(C(=O)O)cn1c23	20 strains	25 µg/mL
CC(C)N=c1cc2n(-c3ccc(Cl)cc3)c3ccccc3nc-2cc1Nc1ccc(Cl)cc1	37 strains	8 µg/mL
COc1c(N2CCNC(C)C2)c(F)cc2c(=O)c(C(=O)O)cn(C3CC3)c12	20 strains	6.25 µg/mL
CCCCN1CCN(c2cc3c(cc2F)c(=O)c(C(=O)O)cn3-c2ccc(F)cc2F)CC1	14 strains	16 µg/mL
CCn1cc(C(=O)O)c(=O)c2cc(F)c(N3CCS(=O)CC3)c(F)c21	-	16 µg/mL
CO[C@H]1/C=C/O[C@@]2(C)Oc3c(C)c(O)c4c(=O)c(c5oc6cc(N7CCN(C(C)C)CC7)cc(=O)c6nc5c4c3=C2O)NC(=O)/C(C)=C\C=C\[C@H](C)[C@H](O)[C@@H](C)[C@@H](O)[C@@H](C)[C@H](OC(C)=O)[C@@H]1C	20 strains	0.07–0.3 µg/mL
O=C(O)c1cn(C2CC2)c2c(F)c(N3CCS(=O)(=O)CC3)c(F)cc2c1=O	14 strains	4 µg/mL
c1ccc(N=Nc2ccccc2)cc1	32 isolates	>128 µg/mL
CCC(C)N1CCN(c2cc(=O)c3nc4c(oc3c2)c2c(=O)c3c(O)c(C)c5c(c34)=C(O)[C@@](C)(O/C=C/[C@H](OC)[C@@H](C)[C@@H](OC(C)=O)[C@H](C)[C@H](O)[C@H](C)[C@@H](O)[C@@H](C)/C=C/C=C(/C)C(=O)N2)O5)CC1	20 strains	0.3 µg/mL
CC1COc2c(N3CCN(C)CC3)c(F)cc3c(=O)c(C(=O)O)cn1c23	-	8–128 µg/mL
COc1cc2c(c3oc(=O)c4c(c13)CCC4=O)C1C=COC1O2	32 isolates	128 µg/mL
CC1CN(c2c(F)cc3c(=O)c(C(=O)O)cn(C4CC4)c3c2F)C(C)CN1	-	4 µg/mL
CCN1CCN(c2c(F)cc3c(=O)c(C(=O)O)cn(C4CC4)c3c2OC)CC1	14 strains	2 µg/mL
N[C@@H]1CN(c2c(F)cc3c(=O)c(C(=O)O)cn([C@@H]4C[C@@H]4F)c3c2Cl)CC12CC2	16 isolates	12.5 µg/mL
NCC1CCN(c2c(F)cc3c(=O)c(C(=O)O)cn(C4CC4)c3c2F)C1	14 strains	8 µg/mL
Cc1cc(=O)c(C(=O)NC(C(=O)N[C@@H]2C(=O)N3C(C(=O)O)=C(CSc4nnnn4C)CS[C@H]23)c2ccc(O)cc2)c[nH]1	-	52.3 µg/mL
CC(=O)NC[C@H]1CN(c2ccc(-c3ccc(-c4nnnn4C)nc3)c(F)c2)C(=O)O1	13 isolates	8 µg/mL
CN(C)[C@@H]1C(=O)C(C(N)=O)=C(O)[C@@]2(O)C(=O)C3=C(O)c4c(O)cccc4[C@@](C)(O)[C@H]3C[C@@H]12	11 strains	>128 µg/mL
N[C@@H]1CONC1=O	-	18 µg/mL
NCC1CCN(c2c(F)cc3c(=O)c(C(=O)O)cn(C4CC4)c3c2F)C1	-	8 µg/mL
Cc1c(F)c(N2CCNC(C)C2)cc2c1c(=O)c(C(=O)O)cn2C1CC1	16 isolates	25 µg/mL
CN(C)c1ccc(O)c2c1C[C@H]1C[C@H]3[C@H](N(C)C)C(=O)C(C(N)=O)=C(O)[C@@]3(O)C(=O)C1=C2O	11 strains	>64 µg/mL

4 of the rows above, restated:

{"compound": "CNn1cc(C(=O)O)c(=O)c2cc(F)c(N3CCN(C)CC3)cc21", "strain": "19 strains", "value": ">25 µg/mL"}
{"compound": "CC[C@H]1OC(=O)[C@H](C)[C@@H](O[C@H]2C[C@@](C)(OC)[C@@H](O)[C@H](C)O2)[C@H](C)[C@@H](O[C@@H]2O[C@H](C)C[C@H](N(C)C)[C@H]2O)[C@](C)(O)C[C@@H](C)CN(C)[C@H](C)[C@@H](O)[C@]1(C)O", "strain": "15 strains", "value": "62 µg/mL"}
{"compound": "CC[C@H]1OC(=O)[C@H](C)[C@@H](O[C@H]2C[C@@](C)(OC)[C@@H](O)[C@H](C)O2)[C@H](C)[C@@H](O[C@@H]2O[C@H](C)C[C@H](N(C)C)[C@H]2O)[C@](C)(OC)C[C@@H](C)C(=O)[C@H](C)[C@@H](O)[C@]1(C)O", "strain": "22 strains", "value": "8 µg/mL"}
{"compound": "CCN(CC)CCN=c1cc2n(-c3ccc(Cl)cc3)c3ccccc3nc-2cc1Nc1ccc(Cl)cc1", "value": "0.4 µg/mL"}

MIC50, MIC90 and the like: level of inhibition, or share of isolates inhibited. Neighbouring rows are from separate reports. a–b is a range or a potency band.